This passage reports stoichiometry N results from article PMC7932532, “Construction, characterization, and immunization of nanoparticles that display a diverse array of influenza HA trimers” (2021).

Assay [1] addresses SpyTagged HA ectodomain trimer of A/Aichi/02/1968 (H3) with Y98F (influenza A virus A/Aichi/02/1968 (H3) | bacteriophage T4). The assay can be described thus: SEC. On the technique in general: In gel filtration, larger molecules generally elute earlier.
The target in assay [2] is SpyTagged HA ectodomain trimer of A/California/04/2009 (H1) with Y98F (influenza A virus A/California/04/2009 (H1) | bacteriophage T4). Put plainly: SEC.
For assay [3], the target named is SpyTagged HA ectodomain trimer of A/Japan/305/1957 (H2) with Y98F (influenza A virus A/Japan/305/1957 (H2) | bacteriophage T4). The assay can be described thus: SEC.
Assay [4] deals with SpyTagged HA ectodomain trimer of A/Jiangxi-Donghu/346/2013 (H10) with Y98F (influenza A virus A/Jiangxi-Donghu/346/2013 (H10) | bacteriophage T4). The assay can be described thus: SEC.
Assay [5] has as its target SpyTagged HA ectodomain trimer of A/Shanghai/1/2013 (H7) with Y98F (influenza A virus A/Shanghai/1/2013 (H7) | bacteriophage T4).
The target in assay [6] is SpyTagged HA ectodomain trimer of A/Vietnam/1203/2004 (H5) with Y98F (influenza A virus A/Vietnam/1203/2004 (H5) | bacteriophage T4).
In assay [7] the target is SpyTagged HA ectodomain trimer of A/swine/HuBei/06/2009 (H4) with Y98F (influenza A virus A/swine/HuBei/06/2009 (H4) | bacteriophage T4). Put plainly: SEC.

For orientation: stoichiometry N means a count of units in the complex or per binding partner. “SpyTagged HA ectodomain trimer of A/Aichi/02/1968 (H3) with Y98F (domain or fragment)”: the stoichiometry N in assay [1] was determined as 3.

The substance “SpyTagged HA ectodomain trimer of A/California/04/2009 (H1) with Y98F (domain or fragment)” yielded a stoichiometry N in assay [2] of 3.

With “SpyTagged HA ectodomain trimer of A/Japan/305/1957 (H2) with Y98F (domain or fragment)”, the stoichiometry N in assay [3] is 3.

On to “SpyTagged HA ectodomain trimer of A/Jiangxi-Donghu/346/2013 (H10) with Y98F (domain or fragment)”, for which, in assay [4], the stoichiometry N turned out to be 3.

As for “SpyTagged HA ectodomain trimer of A/Shanghai/1/2013 (H7) with Y98F”, the stoichiometry N in assay [5] is 3.

For “SpyTagged HA ectodomain trimer of A/Vietnam/1203/2004 (H5) with Y98F”, the stoichiometry N in assay [6] is 3.

Take “SpyTagged HA ectodomain trimer of A/swine/HuBei/06/2009 (H4) with Y98F (domain or fragment)”: the stoichiometry N in assay [7] was determined as 3.
